Measured data: PubChem BioAssay AID1259414 (Drosophila RNAi Screening Center, 2018)
In all, the deposit lists about 24,000 reagents; this is a random part of those with a known target gene and a result. In the full data, about 1,210 (5%) got an active call. 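Inactive calls also include excluded dsRNAs with several or no targets, genes unexpressed in JW18, and well A1, regardless of score.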 A number with no mark means an inactive call. The numbers tell different reagents against one gene apart. Names joined by + are all predicted targets of the reagent.

Test: 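Host factors increasing or decreasing Wolbachia levels in cultured fly cells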 (primary screen)
Cells: Drosophila JW18 cells infected with Wolbachia
Reagent: long dsRNA against Drosophila genes, 0.25 µg dsRNA per well of a 384-well plate
Duration: 5 days
Treatment: cells persistently infected with Wolbachia before knock-down; no added drug
Detection: 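Imaged fluorescence in situ signal for Wolbachia 23S rRNA per DAPI-counted host cell, given as a robust z-score within each plate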
Reading the numbers: Wolbachia per cell robust z: higher = more Wolbachia per host cell than the plate typical
Rule for the call: 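Active if absolute robust z reaches 1.5 in two or more of three replicates, leaving out multi- or no-target dsRNAs, genes unexpressed in JW18 and A1 wells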

What is on record for Papss #1?
Wolbachia per cell robust z, rep 1: -2.43; Wolbachia per cell robust z, rep 2: -1.41; Wolbachia per cell robust z, rep 3: 0.754

What is on record for Papss #2?
Wolbachia per cell robust z, rep 1: -0.795; Wolbachia per cell robust z, rep 2: -1.3; Wolbachia per cell robust z, rep 3: -0.542

For CG32767 #1, what was measured?
Wolbachia per cell robust z, rep 1: 1.35; Wolbachia per cell robust z, rep 2: -1.45; Wolbachia per cell robust z, rep 3: 1.44

For CG32767 #2, how do the results read?
Wolbachia per cell robust z, rep 1: 1.21; Wolbachia per cell robust z, rep 2: 0.789; Wolbachia per cell robust z, rep 3: 0.502

What is on record for CG31826?
Wolbachia per cell robust z, rep 1: 0.842; Wolbachia per cell robust z, rep 2: 0.558; Wolbachia per cell robust z, rep 3: -4

What is on record for E(spl)m6-BFM?
Wolbachia per cell robust z, rep 1: -0.721; Wolbachia per cell robust z, rep 2: 0.982; Wolbachia per cell robust z, rep 3: -0.976

With CG3635, what does the deposit list?
Wolbachia per cell robust z, rep 1: 0.0837; Wolbachia per cell robust z, rep 2: 1.03; Wolbachia per cell robust z, rep 3: 1.34

With CG34348 #1, what was measured?
Wolbachia per cell robust z, rep 1: 0.83; Wolbachia per cell robust z, rep 2: 0.649; Wolbachia per cell robust z, rep 3: 0.399

What did the screen give for CG34348 #2?
Wolbachia per cell robust z, rep 1: 0.919; Wolbachia per cell robust z, rep 2: 0.688; Wolbachia per cell robust z, rep 3: -0.897

With CG31676, how do the results read?
Wolbachia per cell robust z, rep 1: -2.78; Wolbachia per cell robust z, rep 2: 0.147; Wolbachia per cell robust z, rep 3: -0.134

What did the screen give for eIF3g1 #1?
Wolbachia per cell robust z, rep 1: 2.31 (active); Wolbachia per cell robust z, rep 2: 0.0206; Wolbachia per cell robust z, rep 3: 3.27

For eIF3g1 #2, what does the deposit list?
Wolbachia per cell robust z, rep 1: 0.947; Wolbachia per cell robust z, rep 2: 0.675; Wolbachia per cell robust z, rep 3: -0.237

With SWIP, what does the deposit list?
Wolbachia per cell robust z, rep 1: 0.798; Wolbachia per cell robust z, rep 2: -2.26; Wolbachia per cell robust z, rep 3: 1.14

For Prdm13, what was measured?
Wolbachia per cell robust z, rep 1: 1.37; Wolbachia per cell robust z, rep 2: 0.439; Wolbachia per cell robust z, rep 3: -0.302

How did the screen score CG11999?
Wolbachia per cell robust z, rep 1: 0.643; Wolbachia per cell robust z, rep 2: -0.397; Wolbachia per cell robust z, rep 3: 0.872

What did the screen give for Jon65Aii?
Wolbachia per cell robust z, rep 1: 0.251; Wolbachia per cell robust z, rep 2: 0.808; Wolbachia per cell robust z, rep 3: 0.122

With CG13031, how do the results read?
Wolbachia per cell robust z, rep 1: -0.897; Wolbachia per cell robust z, rep 2: -1.97; Wolbachia per cell robust z, rep 3: -2.09

What is on record for CG3223 #1?
Wolbachia per cell robust z, rep 1: -0.489; Wolbachia per cell robust z, rep 2: 0.126; Wolbachia per cell robust z, rep 3: -4.53

For CG3223 #2, what was measured?
Wolbachia per cell robust z, rep 1: 0.989; Wolbachia per cell robust z, rep 2: 0.843; Wolbachia per cell robust z, rep 3: -0.113

What is on record for slo #1?
Wolbachia per cell robust z, rep 1: 0.204; Wolbachia per cell robust z, rep 2: 0.292; Wolbachia per cell robust z, rep 3: -0.802

For slo #2, how do the results read?
Wolbachia per cell robust z, rep 1: -5.15; Wolbachia per cell robust z, rep 2: -3.15; Wolbachia per cell robust z, rep 3: -0.716

With CG5327 + CG5493, what was measured?
Wolbachia per cell robust z, rep 1: 0.707; Wolbachia per cell robust z, rep 2: 0.0421; Wolbachia per cell robust z, rep 3: 0.776

What is on record for Dlip2?
Wolbachia per cell robust z, rep 1: 1.31; Wolbachia per cell robust z, rep 2: 0.777; Wolbachia per cell robust z, rep 3: 1.21

What did the screen give for CG17959 #1?
Wolbachia per cell robust z, rep 1: -3.37; Wolbachia per cell robust z, rep 2: -0.369; Wolbachia per cell robust z, rep 3: 0.0611

How did the screen score CG17959 #2?
Wolbachia per cell robust z, rep 1: 0.656; Wolbachia per cell robust z, rep 2: 0.000813; Wolbachia per cell robust z, rep 3: 0.286

Part of the list above, set out differently.
predicted target	dsRNA no.	Wolbachia per cell robust z, rep 1	Wolbachia per cell robust z, rep 2	Wolbachia per cell robust z, rep 3
Jon65Aii	1	0.251	0.808	0.122
CG13031	1	-0.897	-1.97	-2.09
CG3223	1	-0.489	0.126	-4.53
